Measurements reported in patent US20190048340 (CRISPR Therapeutics AG, published 2019).

Key:
Assay in all cases: EMSA; 37 C
Cpf1 D1255A = Cpf1 D1255A (Francisella novicida U112, UniProt A0Q7Q2 SEQ:1-1300, D1255A)
Cpf1 E1006A = Cpf1 E1006A (Francisella novicida U112, UniProt A0Q7Q2 SEQ:1-1300, E1006A)
Cpf1 D917A = Cpf1 D917A (Francisella novicida U112, UniProt A0Q7Q2 SEQ:1-1300, D917A)

B1:  (ssRNA ; dsDNA)
chain 1: GGGUCUAAGAACUUUAAAUAAUUUCUACUGUUGUAGAUAGAUUAAAAGGUAAUUCUAUCUUGUUGAG
chain 2: AGCTGTAGCAAATATTAATCATATAGAAGAAAGCTCAGATCTCAACAAGATAGAATTACCTTTTAATCTTAAATTATTATATCCAGAAACTATTGATGGTAATTTACTTATC
chain 3: AGCTGATAAGTAAATTACCATCAATAGTTTCTGGATATAATAATTTAAGATTAAAAGGTAATTCTATCTTGTTGAGATCTGAGCTTTCTTCTATATGATTAATATTTGCTAC
Kd (Cpf1 D1255A): 52 nM
Kd (Cpf1 E1006A): 40 nM
Kd (Cpf1 D917A): 48 nM
